Here are results for 1 sequence from PMC8515920.

By UniProt entry, the sequences of proteins in these tests, tags left out. Where a name states a change or a piece, a line headed by the entry shows the natural chain unless it says otherwise.
UniProt P0ACJ8: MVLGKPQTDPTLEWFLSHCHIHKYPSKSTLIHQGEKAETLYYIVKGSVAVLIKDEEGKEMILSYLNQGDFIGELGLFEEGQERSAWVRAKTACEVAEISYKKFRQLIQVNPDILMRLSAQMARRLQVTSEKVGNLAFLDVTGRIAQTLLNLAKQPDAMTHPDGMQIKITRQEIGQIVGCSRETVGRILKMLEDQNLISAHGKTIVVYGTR

In this data set the target is His6-CRP (cAMP receptor protein) (UniProt P0ACJ8). As to the kind of experiment: EMSA. The conditions noted are these: 200 uM cAMP, complexes observed using 100 nM His6-CRP; recombinant protein; protein details: His6; label: none (ethidium bromide stain); probe letters rebuilt from the primers and the genome. (In general: A gel shift assay detects complexes by their altered migration in electrophoresis.)

For at least one entry, the source does not settle the construct or the ends of the probe.

With “TCTCTCCTGGAGAATTAGGAACGTTCACACGCATAAAATCTTCTCTTGAAGAAGAAATTAAAGATCTAAAGAAATGCCGCCAGCTTACCGTGAGATGCTTCTAAGAAAACACCGCAAAACAAGCAACATATAAGCAACACAAACATAACTAAGCGTTGCTTTCAATAGTCTATCTTCGAACCTCACCCTCAGTCAATTTGATTTCCAAAAAAAAATCATATAGCAAAAAATAAAAAACAATCAAAAATAATAACCATAAAAATCAATAACATGTAAAAACATAAATCAAATATAAATTTTTTTGATTGACATAATGCACTCATTGGCGTGCAATATTTGTGCAAACCGTATCGTCTTTCATGTCCAGTAAACAGACAAGGAATAGCACTTTCTCATCGCTTTTTTGTTAAAAAACAAACGAAAAACCTGTTAAATTTCGAGTGAGAGA (double strand) [aroX-npsA intergenic region]”, the binding result was “binds”.
